Test results reported in patent US20130022598A1.

Columns and labels:
[1] = biological target: EGFRwt expressed on cells (NR6W transfectant; A431 cells) (UniProt P00533); assay: cell-based or functional assay
[2] = biological target: recombinant EGFRvIII extracellular domain protein (UniProt P00533); assay: SPR (Biacore 3000), EGFRvIII ECD immobilised on a CM5 chip, IT at 25 to 200 nM
[3] = biological target: EGFRvIII expressed on cells (NR6M transfectant; glioblastoma cells) (UniProt P00533); assay: cell-based or functional assay

Substance	IC50 ng/ml, cytotoxicity (50% inhibition of protein synthesis) on A431 cells [1]	Ka [2]	Kd [2]	IC50 ng/ml, cytotoxicity (50% inhibition of protein synthesis) on D256MG cells [3]	IC50 ng/ml, cytotoxicity (50% inhibition of protein synthesis) on D270MG cells [3]
D2C7-(scdsFv)-PE38 KDEL immunotoxin (from UniProt P11439 278-638) (scFv)	0.17 ng/mL	7.8e+08 M⁻¹	1.3 nM	–	–
D2C7-PE38 immunotoxin (parental) (from UniProt P11439 278-638) (scFv)	1 ng/mL	–	–	–	–
MR1-1-(scdsFv)-PE38 KDEL immunotoxin (from UniProt P11439 278-638) (scFv)	8 ng/mL	–	–	1.9 ng/mL	0.58 ng/mL
